Results reported in PMC7304579.

Biological target: HIV-1 CO6980v0c22 gp145 produced in Expi293F cells (HIV-1 subtype C, strain CO6980v0c22)
Test: BLI; Octet Red 96; biotinylated gp145 immobilised on streptavidin biosensors (10 ug/mL, 250 s, ~50% saturation); analyte in six two-fold dilutions; dissociation in kinetics buffer; global fit to a 1:1 binding model

CD4 (from UniProt P01730 26-458) (receptor)
Kd: 1.2 nM
